Pooled drug test results. Numbers come from NIAID ChemDB, via PubChem.

Common to all: tests on isolated targets; agent: HIV-1; target: Reverse transcriptase; measure: IC50

Blank or dashed fields: not listed here.

structure	changes	read by	strain or isolate	result
CCN1c2ncc(CCOc3ccc4cc(CC(=O)O)ccc4c3)cc2C(=O)N(C)c2cccnc21	RT-Y188L	nucleotide incorporation / radiometric	-	>1 µM
COc1c2ccoc2c(S(=O)(=O)OC2CCCCC2)c2oc(C)cc(=O)c12	-	RT activity / radiometric	-	0.0000092 µM
CC(C)=CCOc1cc(NC(=S)c2ccsc2C)ccc1Cl	RT-L100I	-	-	1.1 µM
CC(C)(C)c1ccc(-n2nnnc2SCC(=O)Nc2ccc(OCC(=O)NN3CCOCC3)cc2Cl)c(Cl)c1	-	PicoGreen / fluorescence	WT	<1 µM
CC(C)Nc1cccnc1OCCN(C)C(=O)c1cc2ccccc2[nH]1	-	nucleotide incorporation	-	<100 µM
Cc1ccc(-n2nnnc2SCC(=O)Nc2ccc(-c3ccc(CCO)cc3)cc2Cl)c(Cl)c1	RT-K103 Y181C	PicoGreen / fluorescence	-	<1 µM
COc1c(C(=O)/C=C(/C)Nc2ccc(F)cc2)c(O)c(S(=O)(=O)Oc2ccc(F)cc2)c2occc12	-	RT activity / radiometric	-	0.0000065 µM
CCN(CC)c1ccc(-n2nnnc2SCC(=O)Nc2ccc(S(N)(=O)=O)cc2C)c(Cl)c1	-	fluorescence	-	0.05–0.1 µM
Cc1[nH]c2ccccc2c1S(=O)(=O)c1ccc(Cl)cc1	WT	RT activity	-	50 µM
CC(C)(N)C#Cc1ccc(NC(=O)CSc2nnnn2-c2cc(C3CC3)cc(C(F)(F)F)c2Cl)c(Cl)c1F	-	PicoGreen / fluorescence	WT	<1 µM
COc1ccccc1-c1cn(S(=O)(=O)c2ccc3ccccc3c2)c2ccccc12	WT	RT activity	-	88 µM
CC(C)=CCN1Cc2cccc3[nH]c(=S)n(c23)C[C@@H]1C	-	radiometric	MN	6 µM
CC(C)(C)c1ccc(-n2nnnc2SCC(=O)Nc2ccc(OCC(=O)Nc3nc(C(=O)O)cs3)cc2Cl)c(Cl)c1	RT-K103 Y181C	PicoGreen / fluorescence	-	<1 µM
COc1c(-c2cc(C)on2)c(O)c(S(=O)(=O)Oc2ccc(F)cc2)c2occc12	-	RT activity / radiometric	-	0.0000056 µM
Cc1cc(C)c(-n2nnnc2SCC(=O)Nc2ccc3c(c2)OCO3)c(C)c1	RT-K103N Y181C	fluorescence	-	≥0.1 µM
CC(C)(C#Cc1ccc(NC(=O)CSc2nnc(C(F)(F)F)n2-c2ccc(C3CC3)cc2Cl)c(Cl)c1)NC(=O)c1cc[n+]([O-])cc1	-	PicoGreen / fluorescence	WT	<1 µM
COc1c(C(=O)/C=C(/C)Nc2ccc([N+](=O)[O-])cc2)c(O)c(S(=O)(=O)OC2CCCCC2)c2occc12	-	RT activity / radiometric	-	0.0000084 µM
CCc1cc(CCc2nc3ccccc3o2)c(=O)[nH]c1C	RT-K103N Y181C Y188C	nucleotide incorporation	-	>117 µM
Cc1ccc(S(=O)(=O)c2c(-c3ccccc3)[nH]c3ccccc23)cc1	K103N	RT activity	-	46 µM
COP(=O)(c1cc(C)cc(CCC#N)c1)c1c(C(N)=O)[nH]c2ccc(Cl)cc12	Y181C	RT activity	-	0.361 µM
CCN1c2ncc(CCOc3ccc(-c4ccc(C(C)C(=O)O)cc4)cc3C)cc2C(=O)N(C)c2cccnc21	-	nucleotide incorporation / radiometric	IIIB	<0.05 µM
COc1ccc(/C=C/CSc2nc([C@H](C)c3c(F)cccc3F)c(C)c(=O)[nH]2)cc1	K103N	RT activity / nucleotide incorporation	-	0.47 µM
COC(=O)C(C)(C)C#Cc1ccc(NC(=O)CSc2nnnn2-c2cc(C(F)(F)F)ccc2Cl)c(Cl)c1	-	PicoGreen / fluorescence	WT	<1 µM
Cc1cc(C)c(-n2nnnc2SCC(=O)c2cc3ccccc3o2)c(C)c1	-	fluorescence	-	≥0.1 µM
CC(C)(C)c1ccc(-n2nnnc2SCC(=O)Nc2ccc(C(=O)N3CCC(C(=O)O)CC3)cc2Cl)c(Cl)c1	-	PicoGreen / fluorescence	WT	<1 µM
F/C(=C\c1ccccc1Cl)CSc1nnnn1-c1cccc2ccccc12	-	fluorescence	-	≥0.1 µM
Cn1c(-c2ccc(Cl)cc2)cs/c1=N\N=C1\C(=O)Nc2ccccc21	-	RT activity / nucleotide incorporation / fluorescence	-	24 µM
COc1c(-c2cc(C)n(-c3ccccc3)n2)c(O)c(S(=O)(=O)OC2CCCC2)c2occc12	-	RT activity / radiometric	-	0.0000044 µM
Cc1cccc(C2=CC(c3cnc(C(C)C)cn3)SC(N)=N2)c1	-	RT activity / ELISA / absorbance	-	>100 µM
CC(C)(C#Cc1ccc(NC(=O)CSc2nnnn2-c2cc(F)ccc2Cl)c(Cl)c1)C(=O)O	-	PicoGreen / fluorescence	WT	<1 µM
Cc1ccc(C2=CC(c3cnc(C(C)C)cn3)SC(N)=N2)cc1	-	RT activity / ELISA / absorbance	-	>100 µM
CCN1c2ncc(CCOc3ccc(C(=O)O)c4c3CCCC4)cc2C(=O)N(C)c2ccc(F)nc21	RT-K103N Y181C	nucleotide incorporation / radiometric	-	0.1–1 µM
CC(C)c1ccc(-n2nnnc2SCC(=O)Nc2ccc(C#CC(C)(C)C(=O)O)cc2Cl)c(Br)c1	RT-K103 Y181C	PicoGreen / fluorescence	-	<1 µM
O=c1cc(Sc2ccc(Cl)cc2)[nH]c(=O)n1O	-	fluorescence	-	0.64 µM
CN1CCN(C(=O)COC(C)(C)C#Cc2ccc(NC(=O)CSc3nnnn3-c3ccc(C(C)(C)C)cc3Cl)c(Cl)c2)CC1	RT-K103 Y181C	PicoGreen / fluorescence	-	<1 µM
Nc1nc(Nc2ccc(Cl)c(Cl)c2)nn1S(=O)(=O)c1ccc2ccccc2c1	-	luciferase / RT activity	IIIB	4.7 µM
CCN1c2ncc(CCOc3ccc(-c4cc[n+]([O-])c(C)c4)cc3C)cc2C(=O)N(C)c2cccnc21	-	nucleotide incorporation / radiometric	IIIB	<0.05 µM
Cc1cc(C)cc(S(=O)(=O)n2cc(-c3cccc([N+](=O)[O-])c3)c3ccccc32)c1	Y181C	RT activity	-	10 µM
N#Cc1cc(Cl)cc(Oc2ccc(Cl)cc2OCC(=O)c2ccc(-c3ccc(OCC(=O)O)cc3)cc2)c1	-	RT activity / ELISA / absorbance	-	1.9 µM
N#Cc1ccc(Nc2nc(N)n(S(=O)(=O)c3ccc4ccccc4c3)n2)cc1Cl	-	luciferase / RT activity	IIIB	1.6 µM
CC(C)(C)c1ccc(-n2nnnc2SCC(=O)Nc2ccc(OCC(=O)NCCN3CCOCC3)cc2Cl)c(Cl)c1	RT-K103 Y181C	PicoGreen / fluorescence	-	<1 µM
CC(C)c1cnc(C2C=C(c3cccc(F)c3)N=C(N)S2)cn1	-	RT activity / ELISA / absorbance	-	21.11 µM
COc1ccc(-c2cs/c(=N\N=C3\C(=O)Nc4ccc(Cl)cc43)n2C)cc1	-	RT activity / nucleotide incorporation / fluorescence	-	28 µM
Cc1cc(C)c(-n2nnnc2SCC(=O)Nc2ccc(-c3ccc(C(C)(C)C(=O)O)cc3)cc2Cl)c(Cl)c1	-	PicoGreen / fluorescence	WT	<1 µM
CCN1c2ncc(CCOc3ccc(-c4cc(F)c(O)c(F)c4)cc3C)cc2C(=O)N(C)c2cccnc21	RT-K103N Y181C	nucleotide incorporation / radiometric	IIIB	0.05–0.1 µM
CCNc1cccnc1N1CCN(C(=O)c2cccc3c2NCC3)CC1	-	nucleotide incorporation	-	~100 µM
COc1ccccc1C1=CC(c2cnc(C(C)C)cn2)SC(N)=N1	-	RT activity / ELISA / absorbance	-	>100 µM
COc1c(C(=O)/C=C(/C)Nc2ccc([N+](=O)[O-])cc2)c(O)c(S(=O)(=O)Oc2ccc([N+](=O)[O-])cc2)c2occc12	-	RT activity / radiometric	-	0.0000069 µM
CC(C)=CCN1Cc2cccc3[nH]c(=S)n(c23)C[C@@H]1C	RT-Y181I	nucleotide incorporation	-	67.5 µM
CC(C)C[C@@H]1N2Cc3c(c4ccccc4n3C(=O)OC(C)(C)C)C1(O)c1c(n(C(=O)OC(C)(C)C)c3ccccc13)C2	-	radiometric	-	<32 µM
CCN1c2ncc(CCOc3ccc(CC(=O)O)c4ccccc34)cc2C(=O)N(C)c2ccc(C)nc21	RT-Y188L	nucleotide incorporation / radiometric	-	>1 µM
CC(C)(C#Cc1ccc(NC(=O)CSc2nnnn2-c2ccc(C3CC3)cc2Cl)c(Cl)c1)NC(=O)c1cc[n+]([O-])cc1	-	PicoGreen / fluorescence	WT	<1 µM
CC(C)Nc1ccnnc1N1CCN(C(=O)c2cc3cc(F)ccc3[nH]2)CC1	-	nucleotide incorporation	-	<100 µM
CCN1c2ncc(CCOc3ccc(CCC(=O)O)c4ccccc34)cc2C(=O)Nc2c(C)cc(Cl)nc21	-	nucleotide incorporation / radiometric	WT	<0.1 µM
CCC(CC)Nc1cccnc1N1CCN(C(=O)c2cc3ccccc3[nH]2)CC1	-	nucleotide incorporation	-	<100 µM
CC(C)(C)c1ccc(-n2nnnc2SCC(=O)Nc2ccc(NC(=O)c3cccc(C(=O)O)c3)cc2Cl)c(Cl)c1	-	PicoGreen / fluorescence	WT	<1 µM
Cc1ccc(S(=O)(=O)n2cc(-c3cccc([N+](=O)[O-])c3)c3ccccc32)cc1	K103N	RT activity	-	34 µM
CC(C)(C#Cc1ccc(NC(=O)CSc2nnnn2-c2cc(C(F)(F)F)ccc2Cl)c(Cl)c1)NC(=O)c1cc[n+]([O-])cc1	-	PicoGreen / fluorescence	WT	<1 µM
CCN1c2ncc(CCOc3ccc(CC(C)C(=O)O)c4ccccc34)cc2C(=O)N(C)c2ccc(Cl)nc21	RT-K103N Y181C	nucleotide incorporation / radiometric	-	0.1–1 µM
Cn1c(-c2ccc([N+](=O)[O-])cc2)cs/c1=N\N=C1\C(=O)Nc2ccccc21	-	RT activity / nucleotide incorporation / fluorescence	-	15.6 µM
CCN1c2ncc(CCOc3ccc(-c4ccc(C)cc4)cc3C)cc2C(=O)N(C)c2cccnc21	RT-K103N Y181C	nucleotide incorporation / radiometric	IIIB	<0.05 µM
CCN1c2ncc(CCOc3ccc(C(C)CC(=O)O)c4ccccc34)cc2C(=O)N(C)c2cccnc21	RT-Y188L	nucleotide incorporation / radiometric	-	>1 µM
CC(C)=CCOc1cc(NC(=S)c2ccoc2C)ccc1Cl	RT-L100I	-	-	10.2 µM
CC(C)(C#Cc1ccc(NC(=O)CSc2nnnn2-c2cc(C(F)(F)F)c(C3CC3)cc2Cl)c(Cl)c1)C(=O)O	RT-K103 Y181C	PicoGreen / fluorescence	-	<1 µM
Cn1c(-c2ccc(C#N)cc2)cs/c1=N\N=C1\C(=O)Nc2ccc(Cl)cc21	-	RT activity / nucleotide incorporation / fluorescence	-	28 µM
CC(C)(C#Cc1ccc(NC(=O)CSc2nnnn2-c2cc(C(F)(F)F)ccc2Cl)c(Cl)c1)OCCN1CCCC1	RT-K103 Y181C	PicoGreen / fluorescence	-	<1 µM
CCN1c2ncc(CCOc3ccc(CC(C)C(=O)O)c4ccccc34)cc2C(=O)N(C)c2ccc(C)nc21	RT-Y188L	nucleotide incorporation / radiometric	-	>1 µM
CC(=O)NC(C)(C)C#Cc1ccc(NC(=O)CSc2nnnn2-c2ccc(C3CC3)cc2Cl)c(Cl)c1	-	PicoGreen / fluorescence	WT	<1 µM
CC(C)(C)c1ccc(-n2nnnc2SCC(=O)Nc2ccccc2Cl)c(Br)c1	-	fluorescence	-	<0.05 µM
CC(C)(C#Cc1ccc(NC(=O)CSc2nnnn2-c2ccc(C3CC3)cc2Cl)c(Cl)c1)NC(=O)C1(C(=O)O)CC1	-	PicoGreen / fluorescence	WT	<1 µM
Cn1c(-c2ccccc2)cs/c1=N\N=C1\C(=O)Nc2ccc(Cl)cc21	-	RT activity / nucleotide incorporation / fluorescence	-	100 µM
CC(C)(C#Cc1ccc(NC(=O)CSc2nnnn2-c2ccc(C3CC3)cc2Cl)c(Cl)c1)COC(N)=O	RT-K103 Y181C	PicoGreen / fluorescence	-	<1 µM
CC(C)c1cnc(C2C=C(c3ccccc3F)N=C(N)S2)cn1	-	RT activity / ELISA / absorbance	-	26.04 µM

9 of the rows above, restated:

structure	changes	read by	strain or isolate	result
Cc1ccc(-n2nnnc2SCC(=O)Nc2ccc(-c3ccc(CCO)cc3)cc2Cl)c(Cl)c1	RT-K103 Y181C	PicoGreen / fluorescence	-	<1 µM
CC(C)(C#Cc1ccc(NC(=O)CSc2nnnn2-c2cc(F)ccc2Cl)c(Cl)c1)C(=O)O	-	PicoGreen / fluorescence	WT	<1 µM
COc1c(-c2cc(C)n(-c3ccccc3)n2)c(O)c(S(=O)(=O)OC2CCCC2)c2occc12	-	RT activity / radiometric	-	0.0000044 µM
CC(C)=CCOc1cc(NC(=S)c2ccoc2C)ccc1Cl	RT-L100I	-	-	10.2 µM
CCN1c2ncc(CCOc3ccc(C(C)CC(=O)O)c4ccccc34)cc2C(=O)N(C)c2cccnc21	RT-Y188L	nucleotide incorporation / radiometric	-	>1 µM
CCN(CC)c1ccc(-n2nnnc2SCC(=O)Nc2ccc(S(N)(=O)=O)cc2C)c(Cl)c1	-	fluorescence	-	0.05–0.1 µM
CCN1c2ncc(CCOc3ccc(-c4ccc(C(C)C(=O)O)cc4)cc3C)cc2C(=O)N(C)c2cccnc21	-	nucleotide incorporation / radiometric	IIIB	<0.05 µM
COc1c(C(=O)/C=C(/C)Nc2ccc([N+](=O)[O-])cc2)c(O)c(S(=O)(=O)Oc2ccc([N+](=O)[O-])cc2)c2occc12	-	RT activity / radiometric	-	0.0000069 µM
COc1ccc(-c2cs/c(=N\N=C3\C(=O)Nc4ccc(Cl)cc43)n2C)cc1	-	RT activity / nucleotide incorporation / fluorescence	-	28 µM

ICn: concentration for n% inhibition. a–b is a range or a potency band. Neighbouring rows are from separate reports.